The results in this text go back to PubChem BioAssay AID504423 (Broad Institute, 2011).

This is a selection; strong and weak results do not stand in their true shares. Active and inactive are the calls of the source.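 The calls were made as follows: active = highest replicate inhibition at or above 60% at 9 µM, even if other replicates fall short; inactive = all replicates below 60% inhibition.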

This assay concerns Kaposi's sarcoma herpesvirus LANA C-terminal domain (residues 932-1162) DNA binding. Put plainly: inhibitors of KSHV C-LANA binding to DNA, primary screen, biochemical, fluorescence polarization, FAM-LBS DNA, MBP-C-LANA, single point (AID 504423).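 Also: 0% = neutral control wells and 100% = 4 µM acridine orange control.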 As to conditions: at 9 µM, stronger effect = higher value.
The inhibition is the drop in the measured response relative to a control, in per cent. In the case of `CCOC(=O)c1ccc(NP(C)(=O)Oc2ccc(OC)cc2)cc1` (stereo not given), the inhibition was inactive: -5.98%. To `CCN(CC)CCCOC(=O)C(O)(c1ccccc1)c1ccccc1` belongs inactive: 1.71%. To `Cc1cccc(C)c1OP(C)(N)=O` (stereo not given) belongs inactive: -2.5%. With `CC(C)(C)c1ccc(OP(C)(=O)Nc2ccc(SC(F)(F)F)cc2)cc1` (stereo not given), the inhibition was inactive: 0.583%. Turning to `O=[N+]([O-])c1ccc2c(c1)C=Nc1ccccc1O2`, the inhibition is inactive: 0.359%. For the compound `O=[N+]([O-])c1cc([N+](=O)[O-])c(Nc2cccnc2)c([N+](=O)[O-])c1`, the inhibition was inactive: -0.946%. Then `COc1ccc(OP(C)(=O)Nc2cccc(F)c2)cc1` (stereo not given), with inactive: -1.66%; and `COc1ccccc1OP(C)(=O)Nc1cc(Cl)ccc1C` (stereo not given), with inactive: -0.384%; and `Cc1cc(C)cc(OP(C)(N)=O)c1` (stereo not given), with inactive: -0.492%. To `CCOC(=O)c1ccc(NP(C)(=O)Oc2ccccc2)cc1` (stereo not given) belongs inactive: 0.39%. To `Cc1ccc(NP(C)(=O)Oc2ccccc2)c(C)c1` (stereo not given) belongs inactive: -2.69%; to `COc1ccccc1OP(C)(=O)Nc1ccc(C)cc1` (stereo not given), inactive: 0.919%; to `O=C(O)c1cccc(Nc2c([N+](=O)[O-])cc([N+](=O)[O-])cc2[N+](=O)[O-])c1`, inactive: -1.6%. Take `CC1=NCCc2c1[nH]c1ccccc21.O=[N+]([O-])c1cc([N+](=O)[O-])c(O)c([N+](=O)[O-])c1`: the inhibition was inactive: -0.537%.

Turning to `Cc1cc(C)cc(OP(C)(=O)Nc2ccc(C)cc2C)c1` (stereo not given), the inhibition was inactive: 2.03%. For `CCOC(=O)c1ccc(NP(C)(=O)Oc2cc(C)cc(C)c2)cc1` (stereo not given), the inhibition is inactive: 1.17%. To `COc1ccccc1OP(C)(=O)Nc1cccc(Br)c1` (stereo not given) belongs inactive: -0.139%. Then `Cc1cc(C)cc(OP(C)(=O)Nc2ccccn2)c1` (stereo not given), with inactive: 0.375%; and `CP(=O)(Nc1cccc(Br)c1)Oc1ccccc1` (stereo not given), with inactive: -0.449%; and `Cc1ccc(C)c(NP(C)(=O)Oc2ccccc2)c1` (stereo not given), with inactive: -2.25%. Then `O=[N+]([O-])c1cc([N+](=O)[O-])c(-n2nnc3ccccc32)c([N+](=O)[O-])c1`, with inactive: -0.234%. With `Cc1nc2ccc3ccccc3c2s1.O=[N+]([O-])c1cc([N+](=O)[O-])c(O)c([N+](=O)[O-])c1`, the inhibition was inactive: -1.06%. Take `O=[N+]([O-])c1cc([N+](=O)[O-])c(-c2cnn(-c3ccccc3)c2)c([N+](=O)[O-])c1`: the inhibition is inactive: -0.179%.

Regarding `CCOC(=O)C(CC)C1=NC(C)(C)Cc2ccccc21.O=[N+]([O-])c1cc([N+](=O)[O-])c(O)c([N+](=O)[O-])c1` (stereo not given), the inhibition is inactive: -0.859%. Then `CC1=C2N=C(C=C3N=C(C(C)=C4[N-][C@@](C)([C@@H]5N=C1[C@](C)(CCC(=O)NC[C@@H](C)OP(=O)([O-])O[C@H]1[C@@H](O)[C@@H](n6cnc7cc(C)c(C)cc76)O[C@@H]1CO)[C@H]5CC(N)=O)[C@@](C)(CC(N)=O)[C@@H]4CCC(N)=O)[C@@](C)(CC(N)=O)[C@@H]3CCC(N)=O)C(C)(C)[C@@H]2CCC(N)=O.[C-]#N.[Co+3]`, with inactive: 3.41%; and `O=[N+]([O-])c1cc([N+](=O)[O-])c(Nc2nnnn2CCO)c([N+](=O)[O-])c1`, with inactive: -1.02%; and `CCCOc1ccc(NP(C)(=O)Oc2ccc(Cl)cc2)cc1` (stereo not given), with inactive: 1%. As for `CP(=O)(Nc1ccc(SC(F)(F)F)cc1)Oc1ccccc1` (stereo not given), the inhibition was inactive: 0.714%. To `CN1CCCCC1COC(=O)C1(O)c2ccccc2CCc2ccccc21` (stereo not given) belongs inactive: 0.71%; to `COc1ccccc1OP(C)(=O)Nc1c(C)cccc1C` (stereo not given), inactive: -1.18%.
